Results deposited as PubChem BioAssay AID504761 (Drosophila RNAi Screening Center, 2011).

- Assay: 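Fly genes whose silencing reduces dengue virus type 2 infection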 (primary screen)
- Cell system: D.Mel-2 cells from Drosophila
- Knock-down reagent: long dsRNA against Drosophila genes
- Treatment: infection with dengue virus type 2; dose and infection time not stated
- Measurement: 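Per well on two replicate plates, imaging gave the percent of cells positive for viral envelope protein, ranked by infection, and a nuclear count of cells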
- Direction: infection score: higher = more virus-infected cells; cell count: higher = more cells in the well
- Rule for the call: 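Very low infection ranking in both replicate wells (chance probability at most 0.065), then a retest showing infection dropped 1.5-fold or more at p below 0.05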
- Calls: active = confirmed: knock-down lowers infection; inactive = not picked or not confirmed
The deposit covers about 22,000 reagents; shown is a random part of those with a known target gene and a result. Of all reagents, 116 (0.52%) were called active. 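Calls depend on retest data that are not deposited; infection was ranked per plate without normalising between plates; the unit of the infection score is not given.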 Raw values are not corrected between plates. Entries without a mark were called inactive. Names joined by + are all predicted targets of the reagent. Not all columns of the deposit are shown. Not stated in the record: the amount of reagent, the time to read-out.

The first 8 entries, ahead of the listing:
gene knocked down,DRSC id,"infection score, replicate 1","infection score, replicate 2","cell count, replicate 1"
S6KL,DRSC19349,0.72,13.6,6012
S6KL,DRSC23147,0.65,3.77,6911
Rubicon,DRSC17889,3.72,1.31,6121
Rubicon,DRSC25992,3,4.94,6793
Btk,DRSC02008,22.4,,5609
Btk,DRSC02666,1.67,1.28,6112
Btk,DRSC22427,2.52,11,6075
CG5068,DRSC10476,18.1,16.5,5692

Main list, from the first entry:
gene knocked down,DRSC id,"infection score, replicate 1","infection score, replicate 2","cell count, replicate 1"
S6KL,DRSC19349,0.72,13.6,6012
S6KL,DRSC23147,0.65,3.77,6911
Rubicon,DRSC17889,3.72,1.31,6121
Rubicon,DRSC25992,3,4.94,6793
Btk,DRSC02008,22.4,,5609
Btk,DRSC02666,1.67,1.28,6112
Btk,DRSC22427,2.52,11,6075
CG5068,DRSC10476,18.1,16.5,5692
step,DRSC03694,16.6,26.6,5919
step,DRSC03699,2.69,3.45,6613
Tgs1 + moi,DRSC24535,8.38,11.6,6145
CG15734,DRSC19701,9.59,8.42,6445
MED24,DRSC10944,1.66,0.86,5837
CG6996,DRSC10758,1.91,6.76,6541
CSN5,DRSC16592,14.8,9.15,5202
CSN5,DRSC22381,1.46,20.2,5885
CSN5,DRSC27904,9.41,46.2,5697
CG14689,DRSC14912,1.43,3.78,5805
CG14689,DRSC28117,16.1,18.4,6072
CG7368,DRSC10826,5.18,5.39,5345
CG7368,DRSC22821,0.85,1.04,6210
CG7368,DRSC29098,22.2,1.78,5522
CG6749,DRSC10704,0.64,2.18,6216
CG32834,DRSC21929,4.98,10.9,6327
CG32834,DRSC28346,12.9,4.94,6255
CG17572,DRSC02629,1.01,9.36,6546
l(3)80Fg,DRSC21645,1.03,3.42,6020
l(3)80Fg,DRSC22171,1.25,5.78,5937
CG30485,DRSC06376,11.3,4.03,6458
sws,DRSC18843,11.4,12.1,6069
St4,DRSC07008,7.85,2.66,6357
CG10747,DRSC02104,27,5.8,4492
CG2889,DRSC18236,4.85,4.08,3777
CG14739,DRSC14959,5.88,8.8,6485
to,DRSC17086,6.87,1.51,6448
to,DRSC29075,14.3,11.1,5475
TrpA1,DRSC10544,0.9,2.81,6470
ea,DRSC16939,14,1.6,5267
ea,DRSC25595,2.94,4.19,6798
speck,DRSC04608,22.3,16.9,6257
speck,DRSC27654,33.1,23.5,5588
Cdk5alpha,DRSC03290,0.63,3.86,6981
Cdk5alpha,DRSC23301,1.69,4.61,6373
Mlc1,DRSC16740,,,340
Mlc1,DRSC27232,15.8,4.21,5470
CG32391,DRSC08865,4.08,0.68,5904
Fs(2)Ket,DRSC03328,13.4,13.6,763
Fs(2)Ket,DRSC23439,7.96,4.02,1181
sxc,DRSC04911,2.55,14.1,5214
conu,DRSC07810,3.25,3.17,6089
cnk,DRSC07595,16.9,22.1,5498
Elovl7,DRSC15452,5.82,4.75,6445
Elovl7,DRSC21570,0.34,2.03,6210
Elovl7,DRSC25259,1.83,9.89,6184
CG8768,DRSC07259,13.3,14.8,1662
AP-1sigma,DRSC15899,2.99,7.04,6398
CG31198,DRSC15891,1.59,3.02,6419
Ugt303B3,DRSC14199,2.51,8.16,6801
Ugt303B3,DRSC26386,0.88,2.63,5891
RhoGAP93B,DRSC15488,6.73,4.23,5556
TfAP-2,DRSC11601,6.01,4.35,6304
CG34221,DRSC06150,14.8,5.81,5499
Cyt-c-p,DRSC03310,13,1.65,6054
Os-C,DRSC16778,7.38,1.45,6397
Os-C,DRSC27993,14.1,3.27,4942
CG10274,DRSC09716,13.3,20.4,5043
CG10274,DRSC24792,3.67,9.3,6706
Blm,DRSC16911,23.4,28.6,5755
CG6739,DRSC02987,3.92,7.95,6409
Obp50c + Obp50b,DRSC05482,2.29,0.95,6157
CG42458,DRSC23129,0.88,3.41,6355
CG42458,DRSC23261,1.79,8.47,5433
CG42458,DRSC26691,3.78,1.11,6643
CG42458,DRSC29831,14.7,10.9,6414
